# T1: recombinant HeV G ectodomain (residues 71-604) (Hendra virus (HeV), UniProt O89343 71-604)
# T1 chain: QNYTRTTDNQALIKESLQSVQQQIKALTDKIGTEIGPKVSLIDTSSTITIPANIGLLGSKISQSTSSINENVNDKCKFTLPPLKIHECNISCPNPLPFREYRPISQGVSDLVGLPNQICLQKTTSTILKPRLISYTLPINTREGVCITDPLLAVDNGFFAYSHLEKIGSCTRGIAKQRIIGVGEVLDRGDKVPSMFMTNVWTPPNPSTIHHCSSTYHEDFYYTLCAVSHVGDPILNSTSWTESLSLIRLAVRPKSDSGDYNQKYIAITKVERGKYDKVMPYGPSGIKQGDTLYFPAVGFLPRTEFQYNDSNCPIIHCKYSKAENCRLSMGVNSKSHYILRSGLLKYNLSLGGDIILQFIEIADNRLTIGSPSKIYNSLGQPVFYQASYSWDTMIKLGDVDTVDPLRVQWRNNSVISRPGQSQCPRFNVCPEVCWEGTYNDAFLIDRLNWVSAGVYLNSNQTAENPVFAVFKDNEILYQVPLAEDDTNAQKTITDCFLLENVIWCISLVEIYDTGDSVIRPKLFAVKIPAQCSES
# T2: recombinant NiVMY G ectodomain (residues 71-602, Strep-tag) (Nipah virus Malaysia (NiVMY), UniProt Q9IH62 71-602)
# T2 chain: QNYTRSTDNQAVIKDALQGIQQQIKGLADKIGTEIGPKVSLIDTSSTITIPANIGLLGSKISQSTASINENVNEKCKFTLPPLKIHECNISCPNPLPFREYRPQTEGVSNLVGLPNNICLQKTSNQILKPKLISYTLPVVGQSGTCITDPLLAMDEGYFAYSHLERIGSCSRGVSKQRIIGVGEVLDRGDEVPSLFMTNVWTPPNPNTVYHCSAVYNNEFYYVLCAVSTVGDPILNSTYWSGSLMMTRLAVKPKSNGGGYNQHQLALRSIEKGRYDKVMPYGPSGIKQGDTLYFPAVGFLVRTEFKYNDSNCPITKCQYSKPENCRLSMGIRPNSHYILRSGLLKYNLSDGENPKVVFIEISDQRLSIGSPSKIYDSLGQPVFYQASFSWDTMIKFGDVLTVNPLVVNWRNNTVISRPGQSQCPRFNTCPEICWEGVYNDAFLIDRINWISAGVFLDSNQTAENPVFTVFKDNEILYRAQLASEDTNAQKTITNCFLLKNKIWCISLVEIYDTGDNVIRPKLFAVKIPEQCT
# B1: 1E5 (chimeric macaque-human IgG1 antibody) (antibody, V domains shown)
# VH: QVQLQESGPGVVKPSETLSLTCAVSGGSISDTYRWSWIRQPPGKGLEWIGYIYGSATSTYYNPSLSSRVTISKDMSKNQFSLNLNSVTAADTAVYYCARDYQYYYSGSYPTPHNWFDVWGPGVLVTVSS
# VL: DIQMTQSPSSLSASVGDRVTITCRASQGIIDYLSWYQQKPGKAPKLLISTASNLESGVPSRFSGSGSGTEFTLTISSLQPEDFATYSCLQGYTTPYTFGQGTKVEIK
# Legend:
# [1] = molecular target: T1, recombinant HeV G ectodomain (residues …); assay: competition with ephrin-B2-Fc
# [2] = molecular target: T2, recombinant NiVMY G ectodomain …; assay: competition with ephrin-B2-Fc
# [3] = molecular target: T1, recombinant HeV G ectodomain (residues …); assay: competition with ephrin-B3-Fc
# [4] = molecular target: T2, recombinant NiVMY G ectodomain …; assay: competition with ephrin-B3-Fc
binder,measurement,setting,value
B1,IC50,[1],1.01 µg/mL
same,IC50,[2],0.11 µg/mL
same,IC50,[3],0.16 µg/mL
same,IC50,[4],0.06 µg/mL

# — publication PMC11109247 (2024)
